Measured values: article PMC4539048 (Science translational medicine, 2015)

Experiments:
P. falciparum K1 = conditions: K1 strain
P. falciparum Dd2 = type: cell-based

## Cc1cc(Nc2ccc(S(F)(F)(F)(F)F)cc2)n2nc(C(C)(F)F)nc2n1 [DSM265, 2-(1,1-difluoroethyl)-5-methyl-[N-[4-(pentafluorosulfanyl)phenyl]1,2,4]triazolo[1,5-a]pyrimidin-7-amine]
P. falciparum K1
  minimum inoculum for resistance (MIR): 2×10^8 parasites
P. falciparum Dd2; Dd2, inoculum 2×10^7 parasites
  drug concentration required to suppress emergence of resistant parasites: 8 xEC50
P. falciparum Dd2; parasites selected with the same drug
  EC50 increase of resistant Dd2 parasites over wild-type: 3–26 fold
